A mixed list of measured activities; the numbers were collected in NIAID ChemDB.

Shared fields: tests on isolated targets; agent: Hepatitis C virus; protein: NS3/NS4A protease

An empty or dashed field is not shown. a–b is a range or a potency band. Rows are shuffled and stem from different studies. ICn is the concentration giving n% inhibition.

| structure | method | read-out | strain | result |
|---|---|---|---|---|
| CCC[C@H](NC(=O)[C@@H]1[C@@H](Cc2ccccc2)CCN1C(=O)[C@H](NC(=O)[C@H](NC(=O)c1cnccn1)C1CCCCC1)C(C)(C)C)C(=O)C(=O)NC1CC1 |  | Ki | Hepatitis C virus | 0.31 µM |
| C=CCNC(=O)C(=O)C(CCC)NC(=O)[C@H]1C(C(=O)[C@@H](NC(=O)[C@@H](NC(=O)[C@H](CCC(=O)OC(C)(C)C)NC(=O)[C@H](CCC(=O)OC(C)(C)C)NC(C)=O)C(C)C)C(C)C)NC(=O)N1CC(=O)OCC |  | Ki |  | 30 µM |
| CCC[C@@H](C=O)NC(=O)[C@H](CC(C)C)NC(=O)[C@@H](NC(=O)[C@H](Cc1ccccc1C)NC(=O)[C@H](CCC(=O)O)NC(=O)[C@H](CC(=O)O)NC(=O)CCC(=O)O)C(C)(C)C |  | IC50 |  | 0.145 µM |
| C=CCOC(=O)CNC(=O)C(=O)C(CCC)NC(=O)[C@H]1C(C(=O)[C@@H](NC(=O)[C@@H](NC(=O)[C@H](CCC(=O)OC(C)(C)C)NC(=O)[C@H](CCC(=O)OC(C)(C)C)NC(C)=O)C(C)C)C(C)C)NC(=O)N1Cc1ccc(C)c(C)c1 |  | Ki |  | >100 µM |
| C=CC1C[C@]1(NC(=O)[C@@H]1C[C@@H](Oc2cc(-c3ccccc3)nc3cc(OC)ccc23)CN1C(=O)[C@@H](NC(=O)OC(C)(C)C)C(C)(C)C)C(=O)NS(=O)(=O)c1cc(Cl)c(Cl)s1 |  | IC50 | BMS | <0.1 µM |
| COc1ccc2c(O[C@@H]3C[C@@H](C(=O)NC4(C(=O)NS(=O)(=O)C5(Cc6ccccc6)CC5)CC4)N(C(=O)[C@@H](NC(=O)OC(C)(C)C)C(C)(C)C)C3)cc(-c3ccccc3)nc2c1 |  | IC50 | BMS | 0.5–5 µM |
| CCCCCCCCCCCCCNC(=O)c1c(O)cc(O)c([N+](=O)[O-])c1O | HPLC | IC50 |  | 100 µg/mL |
| C#CCC[C@H](NC(=O)[C@@H]1[C@@H]2[C@H](CN1C(=O)[C@@H](NC(=O)[C@@H](NC(=O)c1cnccn1)C1(C)CCCCC1)C1(C)CCCCC1)C2(C)C)C(=O)C(=O)NCC=C |  | Ki |  | 0.005 µM |
| C=CC1C[C@]1(NC(=O)[C@@H]1C[C@@H](Oc2cc(-c3csc(NC(C)=O)n3)nc3cc(OC)ccc23)CN1C(=O)[C@@H](NC(=O)OC(C)(C)C)C(C)(C)C)C(=C)C |  | IC50 |  | 0.015 µM |
| C=C[C@@H]1C[C@]1(NC(=O)[C@@H]1C[C@@H](Oc2cc(-c3ccccc3)nc3cc(OC)ccc23)CN1C(=O)[C@@H](NC(=O)OC(C)(C)C)C(C)(C)C)C(=O)NS(=O)(=O)c1ccc(OC)cc1 |  | IC50 | BMS | <0.05 µM |
| C=CC1C[C@]1(NC(=O)[C@@H]1C[C@@H](Oc2cc(-c3ccccc3)nc3cc(OC)ccc23)CN1C(=O)[C@@H](NC(=O)OC(C)(C)C)C(C)(C)C)C(=O)NS(=O)(=O)c1c(C)noc1C |  | IC50 | BMS | <0.1 µM |
| O=C(Nc1ccc(Oc2ccccc2)cc1)c1c(O)cc(O)c([N+](=O)[O-])c1O | HPLC | IC50 |  | 8.5 µg/mL |
| C=C[C@@H]1C[C@]1(NC(=O)C1C[C@@H](Oc2cc(-c3csc(NC4CCCC4)n3)nc3cc(OC)ccc23)CN1C(=O)[C@@H](NC(=O)OC1CCCC1)C1CCCC1)C(=O)O |  | IC50 |  | <0.1 µM |
| C=CC1CC1(NC(=O)[C@@H]1C[C@@H](Oc2cc(-c3ccccc3)nc3cc(OC)ccc23)CN1C(=O)[C@H](CC1CCCCC1)NC(=O)OC(C)(C)C)C(=O)NS(C)(=O)=O |  | IC50 | BMS | <0.5 µM |
| C=CC1CC1(NC(=O)[C@@H]1C[C@@H](OC(=O)Nc2ccccc2C(=O)O)CN1C(=O)[C@@H](NC(=O)OC(C)(C)C)C(C)(C)C)C(=O)NS(=O)(=O)C1CC1 |  | IC50 | BMS/H77C/J416S | 0.1–1 µM |
| C=CC1C[C@]1(NC(=O)[C@@H]1C[C@@H](Oc2cc(-c3ccccc3)nc3cc(OC)ccc23)CN1C(=O)[C@@H](NC(=O)OC(C)(C)C)C(C)(C)C)C(=O)NS(=O)(=O)c1nnc(NC(C)=O)s1 |  | IC50 | BMS | 0.1–1 µM |
| C=CC1CC1(NC(=O)[C@@H]1C[C@@H](OC(=O)Nc2cc(C)nn2-c2ccccc2)CN1C(=O)[C@@H](NC(=O)OC(C)(C)C)C(C)(C)C)C(=O)NS(=O)(=O)C1CC1 |  | IC50 | BMS/H77C/J416S | <0.1 µM |
| CCC[C@H](NC(=O)[C@@H]1[C@@H](CC)CCN1C(=O)[C@H](NC(=O)[C@H](NC(=O)c1cnccn1)C1CCCCC1)C(C)(C)C)C(=O)C(=O)NC1CC1 |  | Ki | Hepatitis C virus | 0.15 µM |
| C=C[C@@H]1C[C@]1(NC(=O)[C@@H]1C[C@@H](Oc2cc(-c3ccccc3)nc3cc(OC)ccc23)CN1C(=O)[C@H](CC(C)C)NC(=O)OC(C)(C)C)C(=O)NS(=O)(=O)C(C)C |  | IC50 | BMS | <0.05 µM |
| CCCCSC[C@@H](C=O)NC(=O)[C@H](CC(C)C)NC(=O)[C@@H](NC(=O)[C@H](Cc1ccccc1C)NC(=O)[C@H](CCC(=O)O)NC(=O)[C@H](CC(=O)O)NC(=O)CCC(=O)O)C(C)(C)C |  | IC50 |  | 0.165 µM |
| C=CC1CC1(NC(=O)[C@@H]1C[C@@H](OC(=O)Nc2c(C)nn(C)c2C)CN1C(=O)[C@@H](NC(=O)OC(C)(C)C)C(C)(C)C)C(=O)NS(=O)(=O)C1CC1 |  | IC50 | BMS/H77C/J416S | 1–10 µM |
| CSCC[C@H](NC(=O)[C@H](CCC(=O)O)NC(=O)[C@H](CC(=O)O)NC(=O)CCC(=O)O)C(=O)NCC(=O)N[C@@H](CCC(=O)O)C(=O)N[C@H](C=O)CC(F)(F)F |  | IC50 |  | 1 µM |
| C=C[C@@H]1C[C@]1(NC(=O)[C@@H]1C[C@@H](Oc2cc(-c3ccccc3)nc3cc(OC)ccc23)CN1C(=O)[C@@H](NC(=O)OC(C)(C)C)C(C)(C)C)C(=O)NS(=O)(=O)c1cccc(Br)c1 |  | IC50 | BMS | <0.05 µM |
| C=CCNC(=O)C(=O)C(CCC)NC(=O)[C@H]1C(C(=O)[C@@H](NC(=O)[C@@H](NC(=O)[C@H](CCC(=O)O)NC(=O)[C@H](CCC(=O)O)NC(C)=O)C(C)C)C(C)C)NC(=O)N1CC(=O)OCC |  | Ki |  | 4 µM |
| CCC[C@H](NC(=O)[C@@H]1[C@@H](C(C)(C)C)CCN1C(=O)[C@H](NC(=O)[C@H](NC(=O)c1cnccn1)C1CCCCC1)C(C)(C)C)C(=O)C(=O)NC1CC1 |  | Ki | Hepatitis C virus | 0.46 µM |
| C=C[C@H]1C[C@@]1(NC(=O)[C@@H]1C[C@@H](Oc2cc(-c3ccccc3)nc3cc(OC)ccc23)CN1C(=O)[C@@H](NC(=O)OC(C)(C)C)C(C)C)C(=O)NS(=O)(=O)C1(COC)CC1 |  | IC50 | BMS | <0.05 µM |
| CCC(C=O)NC(=O)[C@@H]1C[C@@H](Oc2cccc3ccccc23)CN1C(=O)[C@H](NC(=O)[C@H](NC(=O)c1cnccn1)C(C)C)C(C)C |  | Ki |  | 4.1 µM |
| CSCC[C@H](NC(=O)[C@H](CCC(=O)O)NC(=O)[C@H](CC(=O)O)NC(=O)CCC(=O)O)C(=O)N[C@@H](CCC(=O)O)C(=O)N[C@@H](CCC(=O)O)C(=O)[C@H](C=O)CC(F)(F)F |  | IC50 |  | 20 µM |
| CCC[C@H](NC(=O)[C@@H]1[C@@H](C(CC)CC)CCN1C(=O)[C@H](NC(=O)[C@H](NC(=O)c1cnccn1)C1CCCCC1)C(C)(C)C)C(=O)C(=O)NC1CC1 |  | Ki | Hepatitis C virus | 0.33 µM |
| C=C[C@H]1C[C@@]1(NC(=O)[C@@H]1C[C@@H](Oc2ccnc3cc(Cl)ccc23)CN1C(=O)[C@@H](NC(=O)OC1CCCC1)C(C)(C)C)C(=O)NS(=O)(=O)C1(CCC)CC1 |  | IC50 | BMS | <0.05 µM |
| C=C[C@@H]1C[C@]1(NC(=O)[C@@H]1C[C@@H](Oc2cc(-c3ccccc3)nc3cc(OC)ccc23)CN1C(=O)[C@@H](NC(=O)OC(C)(C)C)C1CCCC1)C(=O)NS(=O)(=O)C1CCC1 |  | IC50 | BMS | <0.5 µM |
| C=CC1C[C@]1(NC(=O)[C@@H]1C[C@@H](Oc2cc(-c3ccccc3)nc3cc(OC)ccc23)CN1C(=O)[C@@H](NC(=O)OC(C)(C)C)C(C)(C)C)C(=O)NS(=O)(=O)c1ccc(-c2cc(C(F)(F)F)nn2C)s1 |  | IC50 | BMS | <0.1 µM |
| CCCC1(S(=O)(=O)NC(=O)[C@]2(NC(=O)[C@@H]3C[C@@H](Oc4cc(-c5ccccc5)nc5cc(OC)ccc45)CN3C(=O)[C@@H](NC(=O)OC(C)(C)C)C(C)(C)C)CC23CC3)CC1 |  | IC50 | BMS | 0.05–0.5 µM |
| C=CC1C[C@]1(NC(=O)[C@@H]1C[C@@H](Oc2cc(-c3ccccc3)nc3cc(OC)ccc23)CN1C(=O)[C@@H](NC(=O)OC(C)(C)C)C(C)(C)C)C(=O)NS(=O)(=O)c1ccc(Cl)s1 |  | IC50 | BMS | <0.1 µM |
| C=CC1CC1(NC(=O)[C@@H]1C[C@@H](OC(=O)Nc2ccccc2-n2nc3cc(OC)c(OC)cc3n2)CN1C(=O)[C@@H](NC(=O)OC(C)(C)C)C(C)(C)C)C(=O)NS(=O)(=O)C1CC1 |  | IC50 | BMS/H77C/J416S | <0.1 µM |
| C#CC[C@@H](C=O)C(=O)[C@H](CCC(=O)O)NC(=O)[C@@H](CCC(=O)O)NC(=O)[C@H](Cc1ccccc1C)NC(=O)[C@H](CCC(=O)O)NC(=O)[C@H](CC(=O)O)NC(=O)CCC(=O)O |  | IC50 |  | 5 µM |
| C=CC1CC1(NC(=O)[C@@H]1C[C@@H](OC(=O)N2CCc3ccccc32)CN1C(=O)[C@@H](NC(=O)OC(C)(C)C)C(C)(C)C)C(=O)NS(=O)(=O)C1CC1 |  | IC50 | BMS/H77C/J416S | <0.1 µM |
| CC[C@@H]1C[C@]1(NC(=O)[C@@H]1C[C@@H](Oc2cc(-c3ccccc3)nc3cc(OC)ccc23)CN1C(=O)[C@@H](NC(=O)OC(C)C)C(C)C)C(=O)NS(=O)(=O)C1CC1 |  | IC50 | BMS | <0.05 µM |
| C#CC[C@@H](C=O)NC(=O)[C@H](CC(C)C)NC(=O)[C@@H](NC(=O)[C@H](Cc1ccccc1C)NC(=O)[C@H](CCC(=O)O)NC(=O)[C@H](CC(=O)O)NC(=O)CCC(=O)O)C(C)(C)C |  | IC50 |  | 0.18 µM |
| COc1ccc(NC(=O)c2c(O)cc(O)c([N+](=O)[O-])c2O)cc1OC | HPLC | IC50 |  | 52.2 µg/mL |
| C=CC1CC1(NC(=O)[C@@H]1C[C@@H](OC(=O)Nc2ccccc2C(=O)OCCCC)CN1C(=O)[C@@H](NC(=O)OC(C)(C)C)C(C)(C)C)C(=O)NS(=O)(=O)C1CC1 |  | IC50 | BMS/H77C/J416S | <0.1 µM |
| CCCC1(S(=O)(=O)NC(=O)[C@]2(NC(=O)[C@@H]3C[C@@H](Oc4cc(-c5ccccc5)nc5cc(OC)ccc45)CN3C(=O)[C@@H](NC(=O)OC(C)(C)C)C(C)(C)C)CC2C2CC2)CC1 |  | IC50 | BMS | <0.05 µM |
| C=CC1C[C@]1(NC(=O)[C@@H]1C[C@@H](Oc2cc(-c3ccccc3)nc3cc(OC)ccc23)CN1C(=O)[C@@H](NC(=O)OC(C)(C)C)C(C)(C)C)C(=O)NS(=O)(=O)c1cccs1 |  | IC50 | BMS | <0.1 µM |
| O=C(NCCOc1ccc(Oc2ccccc2)cc1)c1c(O)cc(O)c([N+](=O)[O-])c1O | HPLC | IC50 |  | 32.8 µg/mL |
| C=C[C@@H]1C[C@]1(NC(=O)C1C[C@@H](Oc2cc(-c3csc(NC4CCCC4)n3)nc3cc(OC)ccc23)CN1C(=O)[C@@H](NC(=O)OC1CCC1)C(C)(C)C)C(=O)O |  | IC50 |  | <0.1 µM |
| CC[C@@H](C=O)C(=O)[C@H](CCC(=O)O)NC(=O)[C@H](CCC(=O)O)NC(=O)[C@H](CCSC)NC(=O)[C@H](CCC(=O)O)NC(=O)[C@H](CC(=O)O)NC(=O)CCC(=O)O |  | IC50 |  | 97 µM |